{"source": "PubChem BioAssay AID1224833 (University of Georgia, 2016)", "screen": "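Host factors restraining rotavirus as candidate antiviral genes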 (primary screen)", "cells": "monkey MA104 kidney cells", "knock-down reagent": "siRNA pool against human genes, 50 nM", "timing": "48 h knock-down before infection; read 24 h after infection", "challenge": "infection with rotavirus strain RV3 two days after transfection; infectious dose for this stage not given", "detection": "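Rotavirus antigen per well by fluorescent immunoassay, normalised to non-targeting control wells on each plate and given as a standard z-score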", "reading the numbers": "z-score vs non-targeting control: higher = more rotavirus replication than with non-targeting control", "call rule": "In these data the active calls have z-score vs non-targeting control at about -1 or lower, or at about 1 or higher", "meaning of the calls": "active = z-score beyond 1 either way; inactive = z-score within 1 of zero", "note": "In all, the deposit lists about 12,000 reagents; this is a part drawn at random. Over the whole deposit, about 5,600 (46%) are marked active. 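Active calls cover z-scores past 1 in both directions, so they include lowered as well as raised rotavirus replication.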"}
{"gene": "TICAM2", "z-score vs non-targeting control": 0.352, "call": "inactive"}
{"gene": "XPO5", "z-score vs non-targeting control": -1.22, "call": "active"}
{"gene": "TNFAIP2", "z-score vs non-targeting control": -2.08, "call": "active"}
{"gene": "OR6B3", "z-score vs non-targeting control": 2.5, "call": "active"}
{"gene": "GALNT4", "z-score vs non-targeting control": 1.16, "call": "active"}
{"gene": "BCOR", "z-score vs non-targeting control": 2.17, "call": "active"}
{"gene": "USP32", "z-score vs non-targeting control": 0.959, "call": "inactive"}
{"gene": "ATP13A2", "z-score vs non-targeting control": 2.33, "call": "active"}
{"gene": "IER3IP1", "z-score vs non-targeting control": 1.11, "call": "active"}
{"gene": "LAMB4", "z-score vs non-targeting control": -0.168, "call": "inactive"}
{"gene": "TOR1A", "z-score vs non-targeting control": 0.583, "call": "inactive"}
{"gene": "ETFB", "z-score vs non-targeting control": -1.24, "call": "active"}
{"gene": "GNA14", "z-score vs non-targeting control": -0.123, "call": "inactive"}
{"gene": "GGTLC2", "z-score vs non-targeting control": 2.71, "call": "active"}
{"gene": "TRAPPC3", "z-score vs non-targeting control": 0.471, "call": "inactive"}
{"gene": "KDSR", "z-score vs non-targeting control": -1.07, "call": "active"}
{"gene": "IRX5", "z-score vs non-targeting control": -0.757, "call": "inactive"}
{"gene": "KYAT1", "z-score vs non-targeting control": -0.681, "call": "inactive"}
{"gene": "LPGAT1", "z-score vs non-targeting control": 0.631, "call": "inactive"}
{"gene": "ALDH3A2", "z-score vs non-targeting control": -1.58, "call": "active"}
{"gene": "GOSR2", "z-score vs non-targeting control": -0.763, "call": "inactive"}

Continued; the last 4 above are carried over.
{"gene": "KYAT1", "z-score vs non-targeting control": -0.681, "call": "inactive"}
{"gene": "LPGAT1", "z-score vs non-targeting control": 0.631, "call": "inactive"}
{"gene": "ALDH3A2", "z-score vs non-targeting control": -1.58, "call": "active"}
{"gene": "GOSR2", "z-score vs non-targeting control": -0.763, "call": "inactive"}
{"gene": "RPP25L", "z-score vs non-targeting control": 1.43, "call": "active"}
{"gene": "BTN3A1", "z-score vs non-targeting control": -0.04, "call": "inactive"}
{"gene": "MDFI", "z-score vs non-targeting control": -1.74, "call": "active"}
{"gene": "RPL32", "z-score vs non-targeting control": -0.0907, "call": "inactive"}
{"gene": "FSCN1", "z-score vs non-targeting control": -0.388, "call": "inactive"}
{"gene": "AVPI1", "z-score vs non-targeting control": -0.422, "call": "inactive"}
{"gene": "XPO1", "z-score vs non-targeting control": -1.87, "call": "active"}
{"gene": "TIMM22", "z-score vs non-targeting control": -2.13, "call": "active"}
{"gene": "ACTR5", "z-score vs non-targeting control": 0.599, "call": "inactive"}
{"gene": "NR2F2", "z-score vs non-targeting control": -2.53, "call": "active"}
{"gene": "ZC3HAV1L", "z-score vs non-targeting control": -1.9, "call": "active"}
{"gene": "SHFL", "z-score vs non-targeting control": -0.604, "call": "inactive"}
{"gene": "LRATD2", "z-score vs non-targeting control": -0.0257, "call": "inactive"}
{"gene": "NES", "z-score vs non-targeting control": 0.799, "call": "inactive"}
{"gene": "PEX19", "z-score vs non-targeting control": -0.168, "call": "inactive"}
{"gene": "TTC23", "z-score vs non-targeting control": 1.76, "call": "active"}
{"gene": "DNAJC12", "z-score vs non-targeting control": -0.571, "call": "inactive"}
{"gene": "TMEM145", "z-score vs non-targeting control": 0.615, "call": "inactive"}
{"gene": "FAM241B", "z-score vs non-targeting control": -1.22, "call": "active"}
{"gene": "CNTD1", "z-score vs non-targeting control": 0.486, "call": "inactive"}
{"gene": "RAX2", "z-score vs non-targeting control": -1.85, "call": "active"}
{"gene": "SECISBP2L", "z-score vs non-targeting control": 1.51, "call": "active"}
{"gene": "PSTPIP2", "z-score vs non-targeting control": 0.244, "call": "inactive"}
{"gene": "MYG1", "z-score vs non-targeting control": -0.654, "call": "inactive"}
{"gene": "GSTZ1", "z-score vs non-targeting control": -0.727, "call": "inactive"}
{"gene": "OR51B5", "z-score vs non-targeting control": 1.42, "call": "active"}
